Compound potency records, mixed from different reports. Data source: NIAID ChemDB in PubChem.

Common to all: enzyme or target tests

ICn is the concentration giving n% inhibition.

O=C(O)c1nc(-c2ccccc2NS(=O)(=O)c2ccc(-c3ccccc3)cc2)[nH]c(=O)c1O ; read-out: IC50 ; target: HCV polymerase ; species: Hepatitis C virus ; value: <100 µM
NNC(=O)c1ccncc1 ; strain: H37RV (INH 10 ug/mL-R) ; read-out: inhibition ; tested at: 1000 µM ; target: Isocitrate lyase ; species: Mycobacterium tuberculosis ; value: 43%
Clc1cccc(N2CCN(c3cncc(-c4ccsc4)n3)CC2)c1 ; read-out: IC50 ; target: UL97 kinase ; species: Cytomegalovirus ; value: <100 µM
CO[C@H]1/C=C/O[C@@]2(C)Oc3c(C)c(O)c4c(=O)c(c5oc6cc(N7CCN(CC(C)C)CC7)cc(=O)c6nc5c4c3=C2O)NC(=O)/C(C)=C\C=C\[C@H](C)[C@H](O)[C@@H](C)[C@@H](O)[C@@H](C)[C@H](OC(C)=O)[C@@H]1C ; strain: N-266 ; read-out: IC50 ; target: RNA polymerase ; species: Mycobacterium avium ; value: 0.04 µg/mL
COc1ccc(-c2ccc(C(=O)O)cc2)c(-c2ccc3cc(-c4nc5cc(C(=O)O)ccc5n4C4CCCCC4)ccc3n2)c1 ; read-out: inhibition ; tested at: 33 µM ; target: NS5B polymerase ; species: Hepatitis C virus ; value: 100%
Cc1c(NC(=O)OC(C)(C)C)ccc2nc(N(CCc3ccccc3)C(=O)N(C)CCc3cccnc3)oc(=O)c12 ; read-out: IC50 ; target: Protease ; species: Herpes simplex virus 1 ; value: 0.8 µM
O=C(O)c1ccc(N2C(=O)C(=Cc3ccc(-c4cc5ccccc5o4)o3)SC2=S)cc1 ; read-out: IC50 ; target: NS5 polymerase ; species: Bovine viral diarrhea virus ; value: ≤1 µM
COc1ccc(NC(=S)NNC(=S)N/N=C(\C)c2ccccn2)cc1 ; read-out: IC50 ; target: Ribonucleotide reductase ; species: Herpes simplex virus 1 ; value: >5 µM
O=S(=O)(c1cccc2cnccc12)N1CCNCC1 ; read-out: inhibition ; tested at: 20 µg/mL ; method: nucleotide incorporation ; target: Protein kinase C ; value: 39.1%
C[C@H](CO)[C@@H](OC(=O)N(C1CCCCC1)C1CCCCC1)[C@@H]1OC(C(=O)O)=C[C@H](N)[C@H]1NC(=O)O ; strain: H3N2 AICHI ; read-out: IC50 ; target: Sialidase ; species: Influenza A virus ; value: 100 µM
CC1CN(Cc2ccc(Cl)c(Cl)c2)C(=O)c2c(O)c(=O)ccn21 ; read-out: IC50 ; method: ELISA ; target: Integrase ; species: HIV-1 ; value: 0.01–0.1 µM
CNC(=O)c1ccc(-c2ccccc2)c(-c2ccc3cc(-c4nc5cc(C(=O)O)ccc5n4C4CCCCC4)ccc3n2)c1 ; read-out: inhibition ; tested at: 100 µM ; target: NS5B polymerase ; species: Hepatitis C virus ; value: 98.43%
Cc1c(NC(=O)OC(C)(C)C)ccc2nc(N(CCc3ccccc3)C(=O)NCc3cccnc3)oc(=O)c12 ; read-out: IC50 ; target: Protease ; species: Herpes simplex virus 1 ; value: 0.7 µM
O=C(O)CCN1C(=O)C(=Cc2ccc(-c3cc4ccccc4o3)o2)SC1=S ; read-out: IC50 ; target: NS5 polymerase ; species: Bovine viral diarrhea virus ; value: ≤1 µM
O=C1c2c(O)c(=O)c(-c3ccccn3)cn2CCN1CCCc1cccc(Cl)c1F ; read-out: IC50 ; method: ELISA ; target: Integrase ; species: HIV-1 ; value: 0.01–0.1 µM
NC(=O)c1ccc(-c2cnc(N)c(N3CCN(c4ccncc4)CC3)n2)cc1 ; read-out: IC50 ; target: UL97 kinase ; species: Cytomegalovirus ; value: <10 µM
COc1ccc(C2CCCCC2)c(-c2ccc3cc(-c4nc5cc(C(=O)O)ccc5n4C4CCCCC4)ccc3n2)c1 ; read-out: inhibition ; tested at: 100 µM ; target: NS5B polymerase ; species: Hepatitis C virus ; value: 101%
Cc1c(NC(=O)OC(C)(C)C)ccc2nc(N(CC(C)(C)C)C(=O)N(C)CCc3ccccn3)oc(=O)c12 ; read-out: IC50 ; target: Protease ; species: Herpes simplex virus 1 ; value: >20 µM
O=C(NCc1ccccn1)c1cn2c(c(O)c1=O)C(=O)N(Cc1ccc(F)cc1)CC2 ; read-out: IC50 ; method: ELISA ; target: Integrase ; species: HIV-1 ; value: 0.01–0.1 µM
O=C1NC(=S)S/C1=C/c1ccc(-c2cc(C(F)(F)F)ccc2Cl)o1 ; read-out: IC50 ; target: NS5 polymerase ; species: Bovine viral diarrhea virus ; value: ≤1 µM
CCCCCCCNC(=O)O[C@@H]([C@@H]1OC(C(=O)O)=C[C@H](N)[C@H]1NC(=O)O)[C@H](C)CO ; strain: H3N2 AICHI ; read-out: IC50 ; target: Sialidase ; species: Influenza A virus ; value: 6 µM
O=C(O)c1nc(-c2ccccc2NS(=O)(=O)c2ccc3c(Cl)cccc3c2)[nH]c(=O)c1O ; read-out: IC50 ; target: HCV polymerase ; species: Hepatitis C virus ; value: <100 µM
NC(=O)[C@H](CO)NC(=O)c1ccc2cc(-c3nc4cc(C(=O)O)ccc4n3C3CCCCC3)ccc2n1 ; read-out: inhibition ; tested at: 33 µM ; target: NS5B polymerase ; species: Hepatitis C virus ; value: 42.63%
CCCNC(=O)O[C@@H]([C@@H]1OC(C(=O)O)=C[C@H](N)[C@H]1NC(=O)O)[C@H](C)CO ; strain: Victoria ; read-out: IC50 ; target: Sialidase ; species: Influenza B virus ; value: 1.3 µM
O=C(NCc1cccnc1)c1cn2c(c(O)c1=O)C(=O)N(Cc1cccc(Cl)c1)CC2 ; read-out: IC50 ; method: ELISA ; target: Integrase ; species: HIV-1 ; value: 0.01–0.1 µM
CC(C)C(=O)[O-] ; strain: Can2 ; read-out: Ki ; target: Beta-carbonic anhydrase ; species: Cryptococcus neoformans ; value: 3.81 µM
COc1ccccc1N1CCN(c2cncc(-c3ccccc3C(C)=O)n2)CC1 ; read-out: inhibition ; tested at: 10 µM ; target: UL97 kinase ; species: Cytomegalovirus ; value: >15%
C/C(=N\NC(=S)NNC(=S)Nc1cccc(Cl)c1)c1ccccn1 ; read-out: IC50 ; target: Ribonucleotide reductase ; species: Herpes simplex virus 1 ; value: 5 µM
Fc1ccc(-c2cncc(N3CCN(c4ccccc4)CC3)n2)cc1 ; read-out: inhibition ; tested at: 1 µM ; target: UL97 kinase ; species: Cytomegalovirus ; value: <50%
O=C1c2c(O)c(=O)c(NS(=O)(=O)c3cccs3)cn2CCN1Cc1ccc(F)c(Cl)c1 ; read-out: IC50 ; method: ELISA ; target: Integrase ; species: HIV-1 ; value: 0.01–0.1 µM
O=C(O)c1nc(-c2ccccc2NS(=O)(=O)c2cccc([N+](=O)[O-])c2)[nH]c(=O)c1O ; read-out: IC50 ; target: HCV polymerase ; species: Hepatitis C virus ; value: <100 µM
NC1C=CN([C@@H]2O[C@H](COP(=O)(O)OP(=O)(O)OP(=O)(O)O)[C@@H](O)[C@@H]2O)C(=O)N1 ; read-out: IC50 ; target: DNA polymerase ; species: Woodchuck hepatitis B virus ; value: 1.2 µM
O=C1c2c(O)c(=O)ccn2CCN1Cc1ccc(Cl)c(F)c1 ; read-out: IC50 ; method: ELISA ; target: Integrase ; species: HIV-1 ; value: 0.01–0.1 µM
Cc1cc(N2C(=O)C(=Cc3cc(C(F)(F)F)ccc3Cl)SC2=S)ccc1C(=O)O ; read-out: IC50 ; target: NS5 polymerase ; species: Bovine viral diarrhea virus ; value: ≤1 µM
Cc1c(NC(=O)OC(C)(C)C)ccc2nc(N3CCCC3(OCc3ccccc3)C(=O)N(C)CCc3ccccn3)oc(=O)c12 ; read-out: IC50 ; target: Protease ; species: Herpes simplex virus 1 ; value: >10 µM
COc1cc(CCCN2CCc3nc(N)nc(N)c3C2)cc(OC)c1OC ; strain: TYPE 2 ; read-out: IC50 ; target: Dihydrofolate reductase ; species: Cryptosporidium parvum ; value: >10 µM
Nc1nc2c(ncn2COCCOP(=O)(O)OP(=O)(O)OP(=O)(O)O)c(=O)[nH]1 ; read-out: IC50 ; target: DNA polymerase ; species: Varicella zoster virus ; value: 0.007 µM
CNC(=S)NNC(=S)N/N=C(\C)c1ccccn1 ; read-out: IC50 ; target: Ribonucleotide reductase ; species: Herpes simplex virus 1 ; value: >5 µM
Nc1nc(N)c2nc(CC3CCCCC3)c(CC3CCCCC3)nc2n1 ; strain: TYPE 2 ; read-out: IC50 ; target: Dihydrofolate reductase ; species: Cryptosporidium parvum ; value: >10 µM
Cc1ccc(N2CCN(c3cncc(-c4ccc(N(C)C)cc4)n3)CC2)cc1 ; read-out: inhibition ; tested at: 10 µM ; target: UL97 kinase ; species: Cytomegalovirus ; value: >15%
CCCc1ccc(-c2ccc(C=C3SC(=S)NC3=O)s2)cc1 ; read-out: IC50 ; target: NS5 polymerase ; species: Bovine viral diarrhea virus ; value: ≤1 µM
NNc1cc(-c2ccccc2)nc2ccc(-c3nc4cc(C(=O)O)ccc4n3C3CCCCC3)cc12 ; read-out: inhibition ; tested at: 33 µM ; target: NS5B polymerase ; species: Hepatitis C virus ; value: 92.92%
C[C@H](CO)[C@@H](OC(=O)NCCCCCCN)[C@@H]1OC(C(=O)O)=C[C@H](N=C(N)N)[C@H]1NC(=O)O ; strain: Victoria ; read-out: IC50 ; target: Sialidase ; species: Influenza B virus ; value: 0.12 µM
O=C(NCc1cccc(COCc2ccccc2)c1)Nc1ccsc1-c1nc(C(=O)O)c(O)c(=O)[nH]1 ; read-out: IC50 ; target: HCV polymerase ; species: Hepatitis C virus ; value: <25 µM
COc1cc(N(C)Cc2cccc3nc(N)nc(N)c23)cc(OC)c1OC ; strain: TYPE 1 ; read-out: IC50 ; target: Dihydrofolate reductase ; species: Cryptosporidium parvum ; value: >10 µM
c1ccc(N2CCN(c3cncc(-c4ccsc4)n3)CC2)nc1 ; read-out: inhibition ; tested at: 1 µM ; target: UL97 kinase ; species: Cytomegalovirus ; value: <50%
Cc1ccnc(-c2ccc(C=C3SC(=S)N(c4ccc(C(=O)O)cc4)C3=O)o2)c1 ; read-out: IC50 ; target: NS5 polymerase ; species: Bovine viral diarrhea virus ; value: ≤1 µM
O=c1c(-c2ccccc2Cl)cn2ccn(Cc3cccc(Cl)c3)c(=O)c2c1O ; read-out: IC50 ; method: ELISA ; target: Integrase ; species: HIV-1 ; value: <0.01 µM
COc1ccc(-c2ccc(F)c(Cl)c2)c(-c2ccc3cc(-c4nc5cc(C(=O)O)ccc5n4C4CCCCC4)ccc3n2)c1 ; read-out: inhibition ; tested at: 33 µM ; target: NS5B polymerase ; species: Hepatitis C virus ; value: 97.62%
O=C(O)c1ccc(N2C(=O)C(=Cc3ccc(-c4cc(F)cc(F)c4)o3)SC2=S)cc1 ; read-out: IC50 ; target: NS5 polymerase ; species: Bovine viral diarrhea virus ; value: ≤1 µM
C/C(=N\NC(=S)NNC(=S)NC1CCCC1)c1ccccn1 ; read-out: IC50 ; target: Ribonucleotide reductase ; species: Herpes simplex virus 1 ; value: >5 µM
Cc1cc(-c2nc3cc(C(=O)O)ccc3n2C2CCCCC2)cc2ccc(-c3ccccc3-c3ccccc3)nc12 ; read-out: inhibition ; tested at: 33 µM ; target: NS5B polymerase ; species: Hepatitis C virus ; value: 93.32%
Cn1c2ccccc2c(=O)c2c(O)cccc21 ; read-out: inhibition ; tested at: 0.16 µg/mL ; method: nucleotide incorporation ; target: Protein kinase C ; value: 12.1%
Cc1sc2nc(N)nc(N)c2c1-c1ccc(Cl)cc1 ; strain: TYPE 2 ; read-out: IC50 ; target: Dihydrofolate reductase ; species: Cryptosporidium parvum ; value: >10 µM
O=C(Cc1c[nH]c2ccccc12)Nc1ccsc1-c1nc(C(=O)O)c(O)c(=O)[nH]1 ; read-out: IC50 ; target: HCV polymerase ; species: Hepatitis C virus ; value: <25 µM
Fc1ccc(N2CCN(c3cncc(-c4ccc5ccccc5c4)n3)CC2)c(F)c1 ; read-out: inhibition ; tested at: 1 µM ; target: UL97 kinase ; species: Cytomegalovirus ; value: <50%
O=C(NC(Cc1ccc(C(=O)c2ccccc2)cc1)C(=O)O)c1ccc2c(c1)nc(-c1ccc3nc(-c4ccccc4)cnc3c1)n2C1CCCCC1 ; read-out: inhibition ; tested at: 33 µM ; target: NS5B polymerase ; species: Hepatitis C virus ; value: 98%
Cc1ccccc1-c1cncc(N2CCN(c3ccccc3F)CC2)n1 ; read-out: inhibition ; tested at: 10 µM ; target: UL97 kinase ; species: Cytomegalovirus ; value: >15%
CC(=O)c1cn2ccn(Cc3cccc(Cl)c3)c(=O)c2c(O)c1=O ; read-out: IC50 ; method: ELISA ; target: Integrase ; species: HIV-1 ; value: <0.01 µM
O=C(O)CCN1C(=O)C(=Cc2ccc(-c3cc(C(F)(F)F)ccc3Cl)o2)SC1=S ; read-out: IC50 ; target: NS5 polymerase ; species: Bovine viral diarrhea virus ; value: ≤1 µM

Again, the opening 7 rows:

| SMILES | strain | read-out | tested at | method | target | species | value |
|---|---|---|---|---|---|---|---|
| O=C(O)c1nc(-c2ccccc2NS(=O)(=O)c2ccc(-c3ccccc3)cc2)[nH]c(=O)c1O |  | IC50 |  |  | HCV polymerase | Hepatitis C virus | <100 µM |
| NNC(=O)c1ccncc1 | H37RV (INH 10 ug/mL-R) | inhibition | 1000 µM |  | Isocitrate lyase | Mycobacterium tuberculosis | 43% |
| Clc1cccc(N2CCN(c3cncc(-c4ccsc4)n3)CC2)c1 |  | IC50 |  |  | UL97 kinase | Cytomegalovirus | <100 µM |
| CO[C@H]1/C=C/O[C@@]2(C)Oc3c(C)c(O)c4c(=O)c(c5oc6cc(N7CCN(CC(C)C)CC7)cc(=O)c6nc5c4c3=C2O)NC(=O)/C(C)=C\C=C\[C@H](C)[C@H](O)[C@@H](C)[C@@H](O)[C@@H](C)[C@H](OC(C)=O)[C@@H]1C | N-266 | IC50 |  |  | RNA polymerase | Mycobacterium avium | 0.04 µg/mL |
| COc1ccc(-c2ccc(C(=O)O)cc2)c(-c2ccc3cc(-c4nc5cc(C(=O)O)ccc5n4C4CCCCC4)ccc3n2)c1 |  | inhibition | 33 µM |  | NS5B polymerase | Hepatitis C virus | 100% |
| Cc1c(NC(=O)OC(C)(C)C)ccc2nc(N(CCc3ccccc3)C(=O)N(C)CCc3cccnc3)oc(=O)c12 |  | IC50 |  |  | Protease | Herpes simplex virus 1 | 0.8 µM |
| O=C(O)c1ccc(N2C(=O)C(=Cc3ccc(-c4cc5ccccc5o4)o3)SC2=S)cc1 |  | IC50 |  |  | NS5 polymerase | Bovine viral diarrhea virus | ≤1 µM |

Inhibition is in % at the dose shown (toxicity tests: loss of growth or viability). Neighbouring rows are from separate reports. Two numbers with a dash give a range or band. Blank or dashed fields: not listed here.